Measured values taken from patent US6399827B1, “Quaternary ammonium phosphate compound and method of preparing same” (SK Chemicals, priority 1997, dated 2002).

Columns and labels:
Conditions in all cases: rate of corrosion from weight loss after 42 hours; test material 20 ppm, pH 8.5, 40° C., 15 ppm magnesium hardness, aerated, 150 rpm
[1] = Anticorrosive effect test, copper
[2] = Anticorrosive effect test, tinning steel plate
[3] = Anticorrosive effect test, carbon steel
[4] = Anticorrosive effect test, cast iron

Compound	Anticorrosive effect (mpy) copper [1] [mpy]	Anticorrosive effect (mpy) tinning steel [2] [mpy]	Anticorrosive effect (mpy) carbon steel [3] [mpy]	Anticorrosive effect (mpy) cast iron [4] [mpy]
CCCCCCCCCCCCCC[N+]1(Cc2ccccc2)CCOCC1.N.O=P([O-])(O)O [example 4, 4-benzyl-4-tetradecyl morpholinium ammonium phosphate]	0.1	0.1	5.1	0.8
O=P([O-])(O)O.[Na+] [D, sodium dihydrogen phosphate (NaH2PO4.12H2O)]	0.1	0.3	18.7	13.9
CCCCCCCCCCCCCCCC[N+](C)(C)CCO.CCCCCCCCCCCCCCCC[N+](C)(C)CCO.CCCCCCCCCCCCCCCC[N+](C)(C)CCO.O=P([O-])([O-])[O-] [E, N-dimethyl-N-cetyl-N-hydroxyethyl ammonium phosphate]	0.2	0.3	7.6	5.1
CCCCCCCCCCCCCC[N+]1(Cc2ccccc2)CCOCC1.Cl.N.[Cl-] [B, 4-benzyl-4-tetradecyl morpholinium ammonium chloride]	0.4	0.7	6.8	7.1
